Reference: patent publication US7749983B2, “Metabolically stable alkoxyalkyl esters of antiviral or antiproliferative phosphonates, nucleoside phosphonates and nucleoside phosphates” (priority 2006, dated 2010)

How the values were obtained:
Type in all cases: cell-based
[1] = system: vaccinia virus strain, Copenhagen
[2] = system: cowpox virus, strain Brighton
[3] = system: Ectromelia Virus (ECTV, MOS strain)

Row | Molecule | Vaccinia Copenhagen SI (Selectivity Index) = CC50/EC50 [1] | Cowpox Brighton SI (Selectivity Index) = CC50/EC50 [2] | Ectromelia Virus SI [3]
1 | 14-methyl-pentadecyloxypropyl cidofovir [Compound 14M-PDP-CDV] | 129 | 139 | 137
2 | 17-methyl-octadecyloxyethyl cidofovir [Compound 17M-ODE-CDV] | 469 | 300 | 54
3 | CC(C)CCCCCCCCCCCCCCOCCOP(=O)(O)CO[C@H](CO)Cn1cnc2c(N)ncnc21 [15M-HDE-HPMPA, 3-(15-methylhexadceyloxy)ethyl (S)-HPMPA] | – | – | 3,588
4 | CC(C)CCCCCCCCCCCCCCOCCCOP(=O)(O)CO[C@H](CO)Cn1cnc2c(N)ncnc21 [15M-HDP-(S)-HPMPA, 3-(15-methylhexadecyloxy)propyl (S)-HPMPA] | 2,292 | 529 | –
5 | CC(C)CCCCCCCCCCCCCCCCOCCOP(=O)(O)CO[C@H](CO)Cn1cnc2c(N)ncnc21 [17M-ODE-(S)-HPMPA, 2-(17-methyloctadecyloxy)ethyl (S)-HPMPA] | 89 | 73 | –
6 | CC(C)CCCCCCCCCCCOCCCOP(=O)(O)CO[C@H](CO)Cn1ccc(N)nc1=O [Compound 12M-TrDP-CDV, 12-methyl-tridecyloxypropyl cidofovir] | 63 | 49 | 57
7 | CC(C)CCCCCCCCCCCCOCCCOP(=O)(O)CO[C@H](CO)Cn1ccc(N)nc1=O [Compound 13M-TDP-CDV, 13-methyl-tetradecyloxypropyl cidofovir] | 315 | 205 | 161
8 | CC(C)CCCCCCCCCCCCCCOCCCOP(=O)(O)CO[C@H](CO)Cn1ccc(N)nc1=O [Compound 15M-HDP-CDV, 15-methyl-hexadecyloxypropyl cidofovir] | 152 | 45 | 391
9 | CCCCCCCCCCCCCCCCOCCOP(=O)(O)COC(CO)Cn1cnc2c(N)ncnc21 (centres unmarked) [HDE-HPMPA, reference compound] | – | – | 50
10 | CCCCCCCCCCCCCCCCOCCCOP(=O)(O)CO[C@H](CO)Cn1cnc2c(N)ncnc21 [HDP-(S)-HPMPA, reference compound] | 3,180 | 1767 | –
11 | CCCCCCCCCCCCCCCCOCCCOP(=O)(O)CO[C@H](CO)Cn1ccc(N)nc1=O [HDP-CDV, hexadecyloxypropyl-CDV, reference compound] | – | – | 42
12 | CCCCCCCCCCCCCCCCCCOCCOP(=O)(O)CO[C@H](CO)Cn1cnc2c(N)ncnc21 [ODE-(S)-HPMPA, reference compound] | 263 | 175 | –
